# Reference: patent US11203613B2, “Peptidomimetic proteasome inhibitors” (CORNELL UNIVERSITY, priority 2017, dated 2021)
# “And” between values parts separate entries of the source, which are not always exact repeats. Equal values may be shown once.
# System: Mtb20SOG
# Type: biochemical, Mycobacterium tuberculosis
# Settings: Table 2; Hu c-20S IC50 over Mtb20SOG IC50
row,Compound,Selectivity
1,C[C@H](NC(=O)[C@H](CC(=O)N1CCCC[C@@H]1C)NC(=O)CCC(C)(C)C)c1nc2c(F)cccc2[nH]1 [CF-503227],61 and 80
2,C[C@H](NC(=O)[C@H](CC(=O)N1CCC[C@@H]1C)NC(=O)CCC(C)(C)C)c1ncc(-c2ccc(F)cc2F)[nH]1 [CF-503162],36 and 44
3,C[C@H](NC(=O)[C@H](CC(=O)N1CCCC[C@@H]1C)NC(=O)CCC(C)(C)C)c1ncc(-c2ccc(F)cc2F)[nH]1 [CF-503158],196 and 386
4,Cc1cc(C(=O)N[C@@H](CC(=O)N2CCCCC2C)C(=O)N(C)[C@@H](C)C(=O)NCc2ccc(F)cc2F)no1 (stereo partly drawn),1.9
5,C[C@H](NC(=O)N(CC(=O)N1CCCC[C@@H]1C)NC(=O)CCC(C)(C)C)C(=O)NCc1ccc(F)cc1F [CF-503202],1 1
6,C[C@H](NC(=O)N(CC(=O)N1CCCC[C@@H]1C)NC(=O)OC(C)(C)C)C(=O)NCc1ccc(F)cc1F [CF-503201],1 1
7,Cc1cc(C(=O)N[C@@H](CC(=O)N2CCCC[C@@H]2C)C(=O)N[C@@H](C)c2ncc(Cc3ccccc3)[nH]2)no1 [CF-503133],21 and 30
8,CC(C)CCC(=O)N[C@@H](CC(=O)N1CCCC[C@@H]1C)C(=O)NCc1nc2ccccc2[nH]1 [CF-503193],27
9,C[C@H](NC(=O)[C@H](CC(=O)N1CCCC[C@@H]1C)NS(=O)(=O)CCC1CC1)c1ncc(-c2ccc(F)cc2F)[nH]1 [CF-503206],12
10,CC[C@H]1CCCCN1C(=O)C[C@H](NC(=O)CCC(C)C)C(=O)N[C@@H](C)c1ncc(-c2ccc(F)cc2F)[nH]1 [CF-503213],136 and 153
11,CC[C@H]1CCCCN1C(=O)C[C@H](NC(=O)N1CCOCC1)C(=O)N[C@@H](C)c1nc2c(F)cccc2[nH]1 [CF-503453],1
12,CC[C@H]1CCCCN1C(=O)C[C@H](NC(=O)[C@@H]1C[C@H]1c1ccccc1)C(=O)N[C@@H](C)c1nc2c(F)cccc2[nH]1 [CF-503382],72
13,CC[C@H]1CCCCN1C(=O)C[C@H](Nc1nc2ccc(C)cc2o1)C(=O)N[C@@H](C)c1nc2c(F)cccc2[nH]1 [CF-503360],4
14,C[C@H](NC(=O)[C@H](CC(=O)N1CCCC[C@@H]1C)NC(=O)CC1CCOCC1)c1ncc(Cc2ccccc2)[nH]1 [CF-503135],20 and 35
15,C[C@H](NC(=O)[C@H](CC(=O)N1CCCC[C@@H]1C)NCC(=O)c1ccccc1)c1ncc(-c2ccc(F)cc2F)[nH]1 [CF-503145],1.5
16,CC(C)CCC(=O)N[C@@H](CC(=O)N1CCCC[C@@H]1C)C(=O)N[C@@H](C)c1ncc(-c2ccc(F)cc2F)[nH]1 [CF-503198],5
17,CC(C)C1CC1C(=O)N[C@@H](CC(=O)N1CCCC[C@@H]1C)C(=O)N[C@@H](C)c1nc2c(F)cccc2[nH]1 (stereo partly drawn) [CF-503381],60 and 75
18,C[C@H](NC(=O)N(CC(=O)N1CCCC[C@@H]1C)NC(=O)CCC(C)(C)C)c1ncc(-c2ccc(F)cc2F)[nH]1 [CF-503189],1 and 1.3
19,C[C@H](NC(=O)[C@H](CC(=O)N1CCCC[C@@H]1C)NC(=O)[C@H]1C[C@@H]1c1ccccc1)c1nc2c(F)cccc2[nH]1 [drawing 477],74
20,C[C@H](NC(=O)[C@H](CC(=O)N1CCC[C@@H]1c1ccccc1)Nc1nc2ccccc2o1)c1ncc(-c2ccccc2F)[nH]1 [CF-503242],22 and 30
21,C[C@H](NC(=O)[C@H](CC(=O)N1CCC[C@@H]1c1ccccc1)NC(=O)CCC(C)(C)C)c1nc2ccccc2[nH]1 [CF-503156],188
22,CC[C@H]1CCCCN1C(=O)C[C@H](Nc1nc2ccccc2o1)C(=O)N[C@@H](C)c1nc2c(F)cccc2[nH]1 [CF-503321],17 and 14
23,C[C@H](NC(=O)[C@@H](N)CC(=O)N1CCC[C@@H]1c1ccccc1)c1ncc(-c2ccccc2F)[nH]1 [CF-503240],11
24,CC(C)CCS(=O)(=O)N[C@@H](CC(=O)N1CCCC[C@@H]1C)C(=O)N[C@@H](C)c1ncc(-c2ccc(F)cc2F)[nH]1 [CF-503157],7 and 14

# Same assay, conditions: ratio IC50 (Human Constitutive) / IC50 (Mtb20SOG)
row,Compound,Selectivity
1,CC[C@H]1CCCCN1C(=O)C[C@H](Nc1nc2cc(C)ccc2o1)C(=O)N[C@@H](C)c1nc2c(F)cccc2[nH]1 [CF-503357],7
2,CC(NC(=O)C(CC(=O)N1CCCCC1C)NC(=O)OCc1ccccc1)c1nc2c(F)cccc2[nH]1 (stereo not drawn) [CF-503462],123
3,C[C@H](NC(=O)[C@H](CC(=O)N1CCC[C@@H]1C)NC(=O)CCC(C)(C)C)c1nc2ccccc2[nH]1 [CF-503163],5
4,CC[C@H]1CCCCN1C(=O)C[C@H](NC(=O)N(C)Cc1ccccc1)C(=O)N[C@@H](C)c1nc2c(F)cccc2[nH]1 [CF-503451],19 20
5,CC[C@H]1CCCCN1C(=O)C[C@H](NC(=O)CCC(C)C)C(=O)N[C@@H](C)c1nc2c(F)cccc2[nH]1 [CF-503223],379 308
6,C[C@H](NC(=O)[C@H](CC(=O)N1CCCC1)NC(=O)CCc1ccccc1)C(=O)NCc1cccc2cn[nH]c12 [CF-503390],45 31
7,CC[C@H]1CCCCN1C(=O)C[C@H](NC(=O)CC(F)(F)F)C(=O)N[C@@H](C)c1nc2c(F)cccc2[nH]1 [CF-503319],13
8,CC[C@H]1CCCCN1C(=O)C[C@H](NC(=O)CCC(C)C)C(=O)N[C@@H](C)c1nc2cc(F)cc(F)c2[nH]1 [CF-503219],5 5
9,Cc1cc(C(=O)N[C@@H](CC(=O)N2CCC[C@@H]2c2ccccc2)C(=O)N[C@@H](C)c2ncc(Cc3ccccc3)[nH]2)no1 [CF-503134],82 133
10,C[C@@H](NC(=O)[C@H](CC(=O)N1CCC[C@@H]1C)NC(=O)CCC(C)(C)C)c1nc2ccccc2[nH]1 [CF-503190],7
11,CC(C)CCC(=O)N[C@@H](CC(=O)N1CCCC[C@@H]1C(F)(F)F)C(=O)N[C@@H](C)c1nc(-c2ccc(F)cc2F)c[nH]1 [CF-503212],14
12,CC(NC(=O)C(CC(=O)N1CCCCC1C)NC(=O)C1CC2(CCC2)C1)c1nc2c(F)cccc2[nH]1 (stereo not drawn) [CF-503459],2107 105
13,CCC1CCCCN1C(=O)CC(NC(=O)CCC(C)C)C(=O)NC1CCCC1c1ncc(-c2ccc(F)cc2F)[nH]1 (stereo not drawn) [CF-503292],7.5 2 16 15
14,CC[C@H]1CCCCN1C(=O)C[C@H](NC(=O)C1CC2(CCC2)C1)C(=O)N[C@@H](C)c1nc2c(F)cccc2[nH]1 [CF-503458],1920 112
15,C[C@H]1CCCCN1C(=O)C[C@H](NC(=O)CCC(C)(C)C)C(=O)NCc1nc2ccccc2[nH]1 [CF-503191],23
16,CC(NC(=O)C(CC(=O)N1CCCCC1C)NC(=O)C1CC(C)(C)C1)c1nc(-c2ccc(F)cc2F)c[nH]1 (stereo not drawn) [CF-503474],404
17,C[C@H](NC(=O)[C@H](CC(=O)N1CCCC[C@@H]1C)NC(=O)C1CCC1)c1ncc(-c2ccc(F)cc2F)[nH]1 [CF-503146],15
18,CC1CC(C(=O)N[C@@H](CC(=O)N2CCC[C@@H]2c2ccccc2)C(=O)NC(C)c2nc3ccccc3[nH]2)C1 (stereo partly drawn) [CF-503155],67
19,CC[C@H]1CCCCN1C(=O)C[C@H](Nc1nc(Cc2ccc(F)cc2)no1)C(=O)N[C@@H](C)c1nc2c(F)cccc2[nH]1 [CF-503419],5 4
20,Cc1cc(C(=O)NC(CC(=O)N2CCCCC2C)C(=O)NC(C)c2ncc(-c3ccccc3)[nH]2)no1 (mixture of isomers) [CF-503094],25 15
21,CCC1CCCCN1C(=O)CC(NC(=O)C1CC1c1ccccc1)C(=O)NC(C)c1nc2c(F)cccc2[nH]1 (stereo not drawn),160
